According to patent publication US20250382354A1 (INSTITUTE FOR RESEARCH IN BIOMEDICINE IRB, published 2025):

Experiments:
[1] = biological target: T1, SARS-CoV-2 S ectodomain, Omicron BA.1 (SARS-CoV-2 Omicron BA.1); assay: ELISA on coated S
T1 construct: extracellular domain

[2] = biological target: T2, SARS-CoV-2 S ectodomain, Delta (SARS-CoV-2 Delta); assay: ELISA on coated S
T2 construct: extracellular domain

[3] = biological target: T3, SARS-CoV-2 S ectodomain, Omicron BA.4/BA.5 (SARS-CoV-2 Omicron BA.4/BA.5); assay: ELISA on coated S
T3 construct: extracellular domain

[4] = biological target: T4, SARS-CoV-2 SD1-RBD Delta (SARS-CoV-2 Delta); assay: protein ELISA
T4 construct: domain: SD1-RBD

[5] = biological target: T5, SARS-CoV-2 S Omicron BA.1 (ectodomain) (SARS-CoV-2 Omicron BA.1); assay: protein ELISA
T5 construct: extracellular domain

[6] = biological target: T6, SARS-CoV-2 SD1-RBD Beta (SARS-CoV-2 Beta); assay: protein ELISA
T6 construct: domain: SD1-RBD

[7] = biological target: T7, SARS-CoV-2 SD1-RBD Gamma (SARS-CoV-2 Gamma); assay: protein ELISA
T7 construct: domain: SD1-RBD

[8] = biological target: T8, SARS-CoV-2 S Delta (ectodomain) (SARS-CoV-2 Delta); assay: protein ELISA
T8 construct: extracellular domain

Row | Binder | EC50 [1] | EC50 [2] | EC50 [3] | EC50 [4] | EC50 [5] | EC50 [6] | EC50 [7] | EC50 [8]
1 | hr2.017 (antibody, V domains shown) VH: EVQLVESGGGLVQPGGSLRLSCAVSGFAFSSSWMHWIRQAPGRGLVWVSRINRDGSTTDYADSVKGRFTISRDNAKATLYLQMNSLRAEDTAVYYCATMGFDYWGQGALVTVSS VL: DIVMTQSPDSLAVSLGERATINCKSSQNVLYSSNNKNHLSWYQQKPGQPPKLLIYWASTRKSGVPDRFSGSGSGTDFTLTINSLQAEDVAVYYCQQYFSTPNTFGQGTKLEIK | 0.0908 µg/mL | 0.0944 µg/mL | 0.0793 µg/mL |  |  |  |  | 
2 | sd1.032 (antibody, V domains shown) VH: QVQLVQSGAEVKRPGSSVKVSCKASGGTFNNYAMTWVRQAPGQGLEWMGGIIPMLGTENYAQKFQGRVTITADESTSTAHMELSSLRSEDTAVYYCARLTVPTPHSYYSYGLDAWGQGTTVTVSS VL: QSALTQPASVSGSPGQSITISCTGTSSDVGSYNLVSWFQQHAGRAPKLMIYEGNKRPSGISNRFSGSKSGNTASLTISGLQAEDEADYYCCSYAGSSTHVFGTGTKVTVL |  |  |  | 0.445 µg/mL | 8.98 µg/mL | 0.345 µg/mL | 0.398 µg/mL | 4.47 µg/mL
3 | fp.001 (antibody, V domains shown) VH: VQLVESGGGVVQPGRPLRLSCSGSGFIFSNYAMHWVRQAPGKGLEWVAIISFDARNKRYADSVEGRFTISRDNSKNILYLQMNSLRLEDSAVYFCARDLFLSDYDNGVYDPTRGGFDYWGQGTLVTVSS VL: EIVMTQSPATLSLSPGERATLSCRASQSVNNRLAWYQQKLGQPPRLLISGASTRATGIPARFTGSGSGTEFTLTISSLQSEDFAVYYCQQYHDWPLLSFGGGTKVEIK | 1.81 µg/mL | 0.186 µg/mL | 0.407 µg/mL |  |  |  |  | 
4 | fp.008 (antibody, V domains shown) VH: VQLVESGGGVVQPGRSLRLSCRASGFRFNNYAMHWVRQAPGKGLEWVAIISYEARNEKYAASVKGRFSISRDNAKNTLYLQMNSLRPEDTAIYYCARDVFLSDYDQSGYDVTRGGFDYWGQGTLVTVSS VL: EIVMTQSPATLSVSPGESATLSCRASQSVSSSLAWYQHKFGQAPRLLIYGASTRATGIPDRFSGSGSGMEFTLTISSLQSEDVAIYYCQQYGDWPLVTFGGGTKVEIK | 0.351 µg/mL | 0.378 µg/mL | 0.558 µg/mL |  |  |  |  | 
5 | hr2.012 (antibody, V domains shown) VH: QVQLVQSGAEVKKPGASVKVSCKASGYTFTSHYIHWVRQAPGQGLEWMGIIKPSGGNTIYAQTFQGRVTMTRDTSTSTVYMELRSLTSDDTAVYYCARDQDHGLQRWGQGTLVTVSS VL: QSVLTQPPSVSAPPGQKVTISCSGSSSNIGNNFVSWYQQLPGTAPKLLIYDNIERPSGIPDRFSGSRSGTSATLGITGLQTGDEADYYCGTWDTSLGAWVFGGGTKVTVL | 0.0572 µg/mL | 0.0706 µg/mL | 0.0542 µg/mL |  |  |  |  | 
6 | hr2.015 (antibody, V domains shown) VH: QVQLVQSGAEVKKPGASVKVSCKASGYTFSSYYVNWVRQAPGQGLEWLGIINRSGSSTIYAQKFQGRVTMTRDTSTSTVYLELSSLRSEDTAVYYCARDQDHALHWGQGTLVTVSS VL: QSVLTQPPSVSAAPGQKVTISCSGSSSNIGSNYVSWYQQLPGTAPKLLIYDNSERPSGIPDRFSGSRSGTSATLGITGLQTGDEADYYCGTWDTSLSAWVFGGGTKLTVL | 0.175 µg/mL | 0.31 µg/mL | 0.746 µg/mL |  |  |  |  | 
7 | hr2.013 (antibody, V domains shown) VH: QVQLVQSGAEVKKPGASVKISCKASGYTFTNNYMNWVRQAPGQGLEWMGIIKPSSGSTIYAHKFQGRVTMTRDTSTSTVYMEVRSLTSEDTAVYYCARDQDHGLQNWGQGTLVTVSS VL: QSVLTQPPSVSAASGQKVTIYCSGSSSNIASNFVSWYQQFPGTAPKLLIYDNNQRPSGIPDRFSGSRSGTSATLGITGLQTGDEADYYCGTWDTSLGAWVFGGGTKLTVL | 0.0666 µg/mL | 0.0953 µg/mL | 0.037 µg/mL |  |  |  |  | 
8 | fp.005 (antibody, V domains shown) VH: VQLVESGGGVVQPGNSLRLSCAASGFRFNNYAMHWVRQAPGKGLEWVAIISYEARNEKYADSVKGRFSISRDNAKNTLYLQMNSLRADDTGVYYCARDLFLSDYDTSGYDRTRGGFDYWGQGALVTVSS VL: EIVMTQSPATLSVSPGERATLSCRASQSVSNGLAWYQHRFGQPPRLLIYGASTRATGIPTRFSGSGSGTEFTLTISSLQSEDFAVYYCQQYDDWPLITFGGGTKVEIK | 0.276 µg/mL | 0.212 µg/mL | 0.421 µg/mL |  |  |  |  | 
9 | fp.006 (antibody, V domains shown) VH: VQLVESGGGVVQPGGSLRLSCAASGFNFNNYALHWVRQAPGKGLEWVAIISYEARNKKYGVSVMGRFSISRDNSKSIMYLEMNSLRVEDTGVYYCARDLFLSDYDRSGYDPTRGGFDHWGQGTLVTVSS VL: EIVMTQSPATLSVSPGERATLSCRASQSVSSSLAWYQHRFGQAPRLLISGASTRATGIPGRFSGSGSGTEFTLTISSLQSEDVAVYYCQQYGDWPLVTFGGGTKVEIK | 0.486 µg/mL | 0.235 µg/mL | 0.346 µg/mL |  |  |  |  | 
10 | hr2.018 (antibody, V domains shown) VH: EVQLVESGGGLVKPGGSLRLSCVASGSSVIDAWMNWVRQAPGKGLEWVGRIKSKTNGATTDYAAPVKGRFTISRDDSKNLSYLQMNSLKTEDTGIYYCTTSPLPNFDYWGRGTLVTVSS VL: DIVMTQSPDFLAVSLGERATINCKSSQSVLYSSNNKNYLAWYQQKPGQPPKLLIYWASKRESGVPDRFSGSGSGTDFTLTISSLQAEDVAVYYCQQYYSPAITFGPGTKVDIK | 0.117 µg/mL | 0.159 µg/mL | 0.177 µg/mL |  |  |  |  | 
11 | hr2.019 (antibody, V domains shown) VH: EVQLVESGGGLVKPGGSLRLSCAASGSSVIDVWMNWVRQAPGKGLEWVGRIKTKASGAATDYGAPVKGRFTISRDDSKNLSYLQMNSLRAEDTGIYYCTTSPLPNFDYWGRGTLVTVSS VL: DIVMTQSPDFLAVSLGETATINCRSSQSVFYFANNKNYLAWYQQKPGQPPKLLIYWASKRESGVPDRFSGSGSGTDFTLTISSLQAEDVATYYCQQYSSPAITFGPGTKVDIK | 0.0845 µg/mL | 0.104 µg/mL | 0.0773 µg/mL |  |  |  |  | 
12 | fp.004 (antibody, V domains shown) VH: VQLVESGGGVVQPGTSLRLSCVASGFTFSNYAMHWVRQAPGKGLEWVAIISFDTRNTASAASVKGRFNISRDNSKNSLYLQMNSLRPEDTGVYYCARDLFLSDYDSRGYDPITGGFDCWGQGTLVTVSS VL: EIVMTQSPAALSVSPGEGATLSCRASQSVGSRLAWYQQKLGRPPRLLIYGASTRATGIPARFSGSGSGTEFTLTISSLQSEDFAVYYCQQYNDWPLLTFGGGTKVKIK | 1.74 µg/mL | 0.341 µg/mL | 0.476 µg/mL |  |  |  |  | 
13 | rbd.035 (antibody, V domains shown) VH: EVQLLESGGGLIEPGGSLRLSCAASGFPFNTFAMTWVRQPPGKGLEWVATISSRGDYTFYADFVKGRFSISRDNANNALWLDMSGLRAEDTALYYCAKGESGYDLYLYGLDLWGQGTTVTVSS VL: DIQMTQSPSSLSASVGDGVTITCRASQNINNYLSWYQKKAGKAPKLLIYGASTLHSGVPSRFSGSGSGTDFTLTISSLQPEDFASYYCQQNSPTPPWTFGQGTKVEIK |  |  |  | 0.0165 µg/mL | 2.72 µg/mL | 0.013 µg/mL | 0.0142 µg/mL | 0.0135 µg/mL
14 | hr2.016 (antibody, V domains shown) VH: EVQLLESGGGLVQPGGSLRLSCAASGFMFSKYAMTWVRQTPGKGLEWVSVISGGGGSTYYADSVKGRFTISRDNSKNTLYLQMNSLRAEDTAVYYCAKLLVVFVIDYWGQGALVTVSS VL: EIVLTQSPGTLSLSPGERATLFCRASQSVSSNLAWYQQKPGRAPRLLISGASSRATGIPDRFSGSGSGTDFTLTISRLEPEDFAVYYCQQYGSSPPTFGQGTKVEIK | 0.0396 µg/mL | 0.0602 µg/mL | 0.105 µg/mL |  |  |  |  | 
